Assay results as given in PubChem BioAssay AID2606 (The Scripps Research Institute Molecular Screening Center, 2010).
This is a selection; strong and weak results do not stand in their true shares. Calls of active or inactive are those of the source. No stated cut-off is given here; in the data, active means inhibition above about 38%; inactive means the rest.

Sequences of proteins named here, by UniProt entry; tags and fusion partners are left off.
UniProt P9WHR9, whole entry: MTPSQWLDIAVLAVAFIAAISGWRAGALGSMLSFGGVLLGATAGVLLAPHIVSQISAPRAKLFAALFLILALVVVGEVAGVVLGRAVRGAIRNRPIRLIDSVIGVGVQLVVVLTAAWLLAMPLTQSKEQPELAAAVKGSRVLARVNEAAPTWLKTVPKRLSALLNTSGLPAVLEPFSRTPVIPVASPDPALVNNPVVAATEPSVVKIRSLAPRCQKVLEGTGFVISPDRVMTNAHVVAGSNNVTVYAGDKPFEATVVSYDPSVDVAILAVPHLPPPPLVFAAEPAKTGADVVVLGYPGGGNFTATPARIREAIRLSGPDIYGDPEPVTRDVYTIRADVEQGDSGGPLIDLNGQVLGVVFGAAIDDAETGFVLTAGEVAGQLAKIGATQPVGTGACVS

What follows are molecules tested against Serine protease Rv3671c (Mycobacterium tuberculosis (strain ATCC 25618 / H37Rv)) (UniProt P9WHR9) (assay: Rv3671c serine protease inhibitors, primary screen, biochemical, fluorescence polarization, M. tuberculosis H37Rv (AID 2606;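 further: extracellular domain of Rv3671c used as enzyme; 0% = enzyme with DMSO and 100% = no enzyme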)). Conditions: at 5.96 µM; stronger effect = higher value.

| SMILES | inhibition |
| --- | --- |
| O=[N+]([O-])c1cc([N+](=O)[O-])c(-c2cnn(-c3ccccc3)c2)c([N+](=O)[O-])c1 | inactive: 6.69% |
| Cc1nc2ccc3ccccc3c2s1.O=[N+]([O-])c1cc([N+](=O)[O-])c(O)c([N+](=O)[O-])c1 | inactive: -0.05% |
| O=[N+]([O-])c1cc([N+](=O)[O-])c(-n2nnc3ccccc32)c([N+](=O)[O-])c1 | inactive: 7.09% |
| COc1ccccc1OP(C)(=O)Nc1c(C)cccc1C (stereo unspecified) | inactive: 1.46% |
| CN1CCCCC1COC(=O)C1(O)c2ccccc2CCc2ccccc21 (stereo unspecified) | inactive: -6.67% |
| CP(=O)(Nc1ccc(SC(F)(F)F)cc1)Oc1ccccc1 (stereo unspecified) | inactive: -6.83% |
| CCCOc1ccc(NP(C)(=O)Oc2ccc(Cl)cc2)cc1 (stereo unspecified) | inactive: -0.31% |
| O=[N+]([O-])c1cc([N+](=O)[O-])c(Nc2nnnn2CCO)c([N+](=O)[O-])c1 | inactive: -1.6% |
| CC1=C2N=C(C=C3N=C(C(C)=C4[N-][C@@](C)([C@@H]5N=C1[C@](C)(CCC(=O)NC[C@@H](C)OP(=O)([O-])O[C@H]1[C@@H](O)[C@@H](n6cnc7cc(C)c(C)cc76)O[C@@H]1CO)[C@H]5CC(N)=O)[C@@](C)(CC(N)=O)[C@@H]4CCC(N)=O)[C@@](C)(CC(N)=O)[C@@H]3CCC(N)=O)C(C)(C)[C@@H]2CCC(N)=O.[C-]#N.[Co+3] | inactive: -81.8% |
| CCOC(=O)C(CC)C1=NC(C)(C)Cc2ccccc21.O=[N+]([O-])c1cc([N+](=O)[O-])c(O)c([N+](=O)[O-])c1 (stereo unspecified) | inactive: 8.31% |
| CC1=NCCc2c1[nH]c1ccccc21.O=[N+]([O-])c1cc([N+](=O)[O-])c(O)c([N+](=O)[O-])c1 | inactive: 4.28% |
| O=C(O)c1cccc(Nc2c([N+](=O)[O-])cc([N+](=O)[O-])cc2[N+](=O)[O-])c1 | inactive: 10.3% |
| CP(=O)(Nc1cccc(Br)c1)Oc1ccccc1 (stereo unspecified) | inactive: 2.18% |
| Cc1cc(C)cc(OP(C)(=O)Nc2ccccn2)c1 (stereo unspecified) | inactive: 1.16% |
| Cc1ccc(C)c(NP(C)(=O)Oc2ccccc2)c1 (stereo unspecified) | inactive: -5.4% |
| COc1ccccc1OP(C)(=O)Nc1cccc(Br)c1 (stereo unspecified) | inactive: 2.22% |
| Cc1cc(C)cc(OP(C)(=O)Nc2ccc(C)cc2C)c1 (stereo unspecified) | inactive: 6.49% |
| CCOC(=O)c1ccc(NP(C)(=O)Oc2cc(C)cc(C)c2)cc1 (stereo unspecified) | inactive: -6.69% |
| CCN(CC)CCCOC(=O)C(O)(c1ccccc1)c1ccccc1 | inactive: -3.35% |

| SMILES | inhibition |
| --- | --- |
| CCOC(=O)c1ccc(NP(C)(=O)Oc2ccccc2)cc1 (stereo unspecified) | inactive: 0.13% |
| COc1ccccc1OP(C)(=O)Nc1ccc(C)cc1 (stereo unspecified) | inactive: -4.76% |
| Cc1ccc(NP(C)(=O)Oc2ccccc2)c(C)c1 (stereo unspecified) | inactive: 0.3% |
| COc1ccccc1OP(C)(=O)Nc1cc(Cl)ccc1C (stereo unspecified) | inactive: 0.15% |
| COc1ccc(OP(C)(=O)Nc2cccc(F)c2)cc1 (stereo unspecified) | inactive: -2.6% |
| Cc1cc(C)cc(OP(C)(N)=O)c1 (stereo unspecified) | inactive: 8.8% |
| O=[N+]([O-])c1cc([N+](=O)[O-])c(Nc2cccnc2)c([N+](=O)[O-])c1 | inactive: 4.96% |
| CC(C)(C)c1ccc(OP(C)(=O)Nc2ccc(SC(F)(F)F)cc2)cc1 (stereo unspecified) | inactive: -3.45% |
| Cc1cccc(C)c1OP(C)(N)=O (stereo unspecified) | inactive: 4.81% |
| O=[N+]([O-])c1ccc2c(c1)C=Nc1ccccc1O2 | inactive: 3.29% |
| CP(=S)(Nn1cnnc1)Oc1ccccc1 (stereo unspecified) | inactive: -3.99% |
| COc1ccccc1OP(C)(=O)Nc1ccccc1 (stereo unspecified) | inactive: -5.91% |
| CP(=O)(Nc1ccccc1Br)Oc1ccccc1 (stereo unspecified) | inactive: -1.22% |
| CCOP(C)(=S)SCC(=O)NC(C)C(=O)O (stereo unspecified) | inactive: -4.73% |
| CCOC(=O)c1ccc(NP(C)(=O)Oc2ccc(OC)cc2)cc1 (stereo unspecified) | inactive: -6.32% |
| O=[N+]([O-])c1cc([N+](=O)[O-])c(O)c([N+](=O)[O-])c1.c1ccc(Oc2ccncc2)cc1 | inactive: 5.37% |
| CP(=O)(Nc1ccccn1)Oc1ccc(Cl)cc1 (stereo unspecified) | inactive: -0.78% |
| Cc1cccc(C)c1OP(C)(=O)Nc1ccc(SC(F)(F)F)cc1 (stereo unspecified) | inactive: -26% |
| CP(=O)(Nc1ccc(SC(F)(F)F)cc1)Oc1ccc(Cl)cc1 (stereo unspecified) | inactive: 6.39% |

| SMILES | inhibition |
| --- | --- |
| CP(=O)(Oc1ccccc1)OC(c1ccccc1)C(F)(F)F (stereo unspecified) | inactive: 7.68% |
| CCc1ccc(OP(C)(=O)N2CCN(c3ccc([N+](=O)[O-])cc3)CC2)cc1 (stereo unspecified) | inactive: 1.82% |
| CP(=O)(NC(=O)Nc1ccccc1)Oc1ccccc1 (stereo unspecified) | inactive: -7.71% |
| Cc1cc(C)cc(OP(C)(=O)Nc2ccc(SC(F)(F)F)cc2)c1 (stereo unspecified) | inactive: -6.88% |
| CP(=O)(Nc1ccc(Cl)cc1)Oc1ccc(F)cc1 (stereo unspecified) | inactive: 6.98% |
| CC(C)(C)c1ccc(OP(C)(=O)O)cc1 | inactive: -0.08% |
| COc1ccccc1OP(C)(=O)Nc1ccccc1Br (stereo unspecified) | inactive: -1.53% |
| CN(C)C(=O)c1c([N+](=O)[O-])cc([N+](=O)[O-])cc1[N+](=O)[O-] | inactive: -22.5% |
| CCN(CC)CC(O)COC(=O)C(O)(c1ccccc1)C1CCCCC1 (stereo unspecified) | inactive: -0.95% |
| COc1ccc(OP(C)(=O)Nc2ccc(Br)cc2)cc1 (stereo unspecified) | inactive: 2.69% |
| CP(=O)(Oc1ccccc1)N1CCOC1=O (stereo unspecified) | inactive: 5.32% |
| CCc1ccc(OP(C)(=O)Nc2cccnc2)cc1 (stereo unspecified) | inactive: 3.52% |
| COc1ccccc1OP(C)(=O)Nc1c(C)n(C)n(-c2ccccc2)c1=O (stereo unspecified) | inactive: -3.62% |
| O=C(OCCCN1CCCC1)C(O)(c1ccccc1)C1CCCCC1 (stereo unspecified) | inactive: 2.81% |
| Nc1ccc2c(ccc3cccnc32)n1.O=[N+]([O-])c1cc([N+](=O)[O-])c(O)c([N+](=O)[O-])c1 | inactive: 2.38% |
| CP(=O)(OC12CC3CC(CC(C3)C1)C2)OC12CC3CC(CC(C3)C1)C2 | inactive: 2.76% |
| CCOC(=O)c1ccc(NP(C)(=O)Oc2ccc(Cl)cc2)cc1 (stereo unspecified) | inactive: -1.59% |
| Cc1nc2ccc3ccccc3c2o1.O=[N+]([O-])c1cc([N+](=O)[O-])c(O)c([N+](=O)[O-])c1 | inactive: -16.4% |
